We go through one molecule from patent publication US20210395346A1 (SEOUL NATIONAL UNIVERSITY R AND DB FOUNDATION, published 2021).

The test has as its target T1, recombinant SARS-CoV-2 S1 D614G protein (Sino Biological Inc.) (SARS-CoV-2).
T1 construct: domain: S1
Nature of the test: ELISA, scFv-hFc on coated protein (FIG. 14). A general note: ELISA stands for enzyme-linked immunosorbent assay.

B1: E-3G9 scFv-hFc fusion protein (Fc fusion)
scFv: ELRMTQSPSSLSASVGDRVTIT[about 80 residues cut from this listing]FGQGTKLEIKGGSSRSSSSGGGGSGGGGQMQLVQSGAEVKKPGASVKVSCKASGHTITSYYMHWVRQAPGQGLEWMGIINPSGGSTSYAQKFQGRVTMTRDTSTSTVYMELSSLRSEDTAVYYCAREGVWDSSGYSSFDYWGQGTLVTVSS
As for B1, the binding result is reported as “binds”.
